# Article PMC9132681 (Biochimie, 2022)
# T1: cytosolic fragment of human TOM70 (residues 111-608), His-tagged (human, UniProt O94826 111-608)
# T1 sequence: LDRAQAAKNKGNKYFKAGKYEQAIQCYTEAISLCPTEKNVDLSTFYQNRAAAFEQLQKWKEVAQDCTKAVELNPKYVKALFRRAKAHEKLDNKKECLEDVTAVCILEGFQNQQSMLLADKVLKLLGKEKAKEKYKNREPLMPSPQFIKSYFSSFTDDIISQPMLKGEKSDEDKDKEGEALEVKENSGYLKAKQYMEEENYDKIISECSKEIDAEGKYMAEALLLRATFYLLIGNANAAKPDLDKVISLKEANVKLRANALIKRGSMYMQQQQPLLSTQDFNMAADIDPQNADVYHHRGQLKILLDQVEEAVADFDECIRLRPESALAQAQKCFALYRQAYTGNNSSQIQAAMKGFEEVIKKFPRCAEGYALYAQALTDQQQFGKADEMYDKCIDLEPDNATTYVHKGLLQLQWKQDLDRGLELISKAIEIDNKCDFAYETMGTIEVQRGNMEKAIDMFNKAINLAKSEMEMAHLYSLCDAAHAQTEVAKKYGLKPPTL
# B1: SARS-CoV-2 ORF9b (open reading frame 9b), His-tagged recombinant protein (natural protein)
# chain: not shown
# Molecular target: T1, cytosolic fragment of human TOM70 …
# Test: SEC-MALS
binder,measurement,value
B1,stoichiometry N,1 ORF9b per TOM70
